Assay results published in article PMC4216219 (Journal of Medicinal Chemistry, 2014).

Key:
[1] = tested on: L. donovani intracellular amastigotes; assay: L. donovani intracellular amastigote assay; conditions: compared with compound 2
[2] = tested on: L. amazonensis intracellular amastigotes; assay: L. amazonensis intracellular amastigote assay; conditions: compared with compound 2
[3] = tested on: L. donovani MHOM/NP/02/BPK164/1; conditions: antimony-resistant clinical isolate

SMILES: OCCNc1nc(NCc2ccco2)c2ccccc2n1 [Compound 4, 2-(4-(Furan-2-ylmethylamino)quinazolin-2-ylamino)ethanol]
- lost potency against L. donovani by a factor [1]: 10
- lost potency against L. amazonensis by a factor [2]: > 13

SMILES: O.O.O.O.O.O.O.O.O.O=C([O-])[C@@H]1[O][Sb](=[O])([O][Sb]2(=[O])[O][C@H]([C@H](O)CO)[C@H](O)[C@H](C(=O)[O-])[O]2)[O][C@H]([C@H](O)CO)[C@@H]1O.[Na+].[Na+].[Na+] (stereo partly drawn) [sodium stibogluconate]
- EC50 BPK164/1 [3]: >60 micrograms of pentavalent antimony per milliliter
